# Structures were worked out from names or drawings and are uncertain.
# Chains of the proteins cited; added tags and fusions are not shown. Residues count along the entry.
# UniProt P27958, 1027-1657 limits assumed: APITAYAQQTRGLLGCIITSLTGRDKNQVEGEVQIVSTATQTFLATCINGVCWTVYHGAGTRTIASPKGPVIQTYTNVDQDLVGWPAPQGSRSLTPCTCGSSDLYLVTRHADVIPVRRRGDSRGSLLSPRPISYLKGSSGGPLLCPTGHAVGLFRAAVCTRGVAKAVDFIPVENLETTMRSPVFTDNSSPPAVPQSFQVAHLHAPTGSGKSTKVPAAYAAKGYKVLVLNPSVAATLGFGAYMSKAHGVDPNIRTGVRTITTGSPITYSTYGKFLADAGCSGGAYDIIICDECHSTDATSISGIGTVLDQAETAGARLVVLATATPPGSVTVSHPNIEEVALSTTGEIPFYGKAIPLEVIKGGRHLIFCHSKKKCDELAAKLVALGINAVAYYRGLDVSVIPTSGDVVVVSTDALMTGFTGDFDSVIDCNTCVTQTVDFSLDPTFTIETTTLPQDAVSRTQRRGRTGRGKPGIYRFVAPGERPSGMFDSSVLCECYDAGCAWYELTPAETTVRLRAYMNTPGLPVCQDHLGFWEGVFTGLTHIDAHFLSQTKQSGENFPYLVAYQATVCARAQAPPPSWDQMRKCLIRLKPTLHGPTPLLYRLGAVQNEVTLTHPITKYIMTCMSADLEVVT
# Molecular target: NS3-NS4 protease (full-length NS3/NS4A-2) (Hepatitis C virus genotype 1a, UniProt P27958)
# Test: NS3-NS4 protease assay / NS3 inhibition assay (RETS1 substrate, fluorescence kinetic read)
# Assay type: biochemical
# Details: read-out: NS3-NS4 IC50
structure (smiles),measurement,value
O=C(CCC(F)(F)F)N[C@H]1CCCCC/C=C\[C@@H]2C[C@@]2(C(=O)NS(=O)(=O)C2CC2)NC(=O)[C@@H]2C[C@@H](OC(=O)N3Cc4ccccc4C3)CN2C1=O,IC50,< 0.1 µM

# From patent US8299021B2, “Macrocyclic inhibitors of hepatitis C virus replication” (InterMune, Inc., priority 2005, dated 2012)
